The target of assay [1] is gp145 SOSIP construct of the Env spike protein from the HIV-1 BG505 clade A strain, nanodisc-embedded trimer (HIV-1 strain BG505 (clade A)). The assay is described as follows: negative-stain EM.
Assay [2] shares this target. Put plainly: cryo-EM structure.

Values joined by “and” are separate entries in the source; they are usually repeats but may differ in a detail not shown here. Equal entries are not always repeated.

Usually stoichiometry N stands for the number of molecules, sites or subunits per partner or assembly.

For the substance “Fab fragment of broadly neutralizing antibody 4E10”, the stoichiometry N in assay [1] was 1 and 3. Moreover, in assay [2], the percent of ectodomains bound by at least one Fab stood at 20%.
